Results of unrelated studies side by side (data: NIAID ChemDB).

Shared fields: growth or infection tests; agent: Candida krusei; method: broth dilution; read-out: MIC

Conditions beyond the fields shown may differ between rows. Blank or dashed fields: not listed here.

smiles | setting | strain or isolate | value
CO[C@@]12OC(=O)C(C)=C1C1=C3[C@](C)([C@@H]4C[C@@H]4[C@@]3(O)C[C@@H]3[C@]14OC(=O)C1=C4C[C@H]4[C@](O)(COC(=O)/C(C)=C/COC(=O)CCC(=O)OC1)[C@H]1C[C@H]1[C@]34C)[C@H]2O |  | ATCC 6258 | >256 µg/mL
CC(C)C(NC(=O)C(N)Cc1ccccc1)C(=O)NC(CCCN=C(N)N)C(=O)O |  | ATCC 6258 | 171 µg/mL
O=C(CCn1ccnc1)c1cccc(C(O)c2ccc(Br)cc2)c1 |  | RTCC 1090 | >64 µg/mL
Cc1nc2c(s1)C(=O)C(Nc1ccc(Cl)cc1)=C(Cl)C2=O |  | KCCM 11655 | 50 µg/mL
Cc1ccc(C(O)c2cccc(C(=O)CCn3ccnc3)c2)cc1 |  | RTCC 1001 | >64 µg/mL
COC(=O)/C(C)=C1\C(=O)[C@H](O)[C@]2(C)C3=C(C[C@@H]4[C@]5(OC(=O)C6=C5C[C@H]5[C@](O)(COC(=O)/C(C)=C/COC(=O)CCC(=O)OC6)[C@H]6C[C@H]6[C@]45C)[C@H]31)[C@H]1C[C@H]12 |  | ATCC 6258 | 64 µg/mL
O=C(/C=C/c1cc(Cl)cc(Cl)c1)c1c[nH]c2ccccc12 |  | NRRL Y-7179 | 200 µg/mL
Nc1[nH]c(=O)ncc1F |  |  | 6.3 µg/mL
O=C(CCn1ccnc1)c1cccc(O)c1 |  | RTCC 1001 | >64 µg/mL
CCOc1ccc2nc3cc(N=C4NC(=O)/C(=C\c5ccc([N+](=O)[O-])cc5)S4)ccc3c(N)c2c1 |  |  | 250 µg/mL
CC(=O)N1CCN(c2ccc(OC[C@H]3CO[C@](Cn4ccnc4)(c4ccc(Cl)cc4Cl)O3)cc2)CC1 |  | NRRL Y-7179 | 1.56 µg/mL
C[C@H]1[C@H](O)[C@@H](C)/C=C/C=C/C=C/C=C/C=C/C=C/C=C/[C@H](O[C@@H]2O[C@H](C)[C@@H](O)[C@H](N)[C@@H]2O)C[C@@H]2O[C@](O)(C[C@@H](O)C[C@@H](O)CC[C@H](O)[C@@H](O)C[C@@H](O)CC(=O)O[C@H]1C)C[C@H](O)[C@H]2C(=O)O | 48 h | NBRC 1395 | 2 µg/mL
CC(C)(O)c1cn(-c2ccc(Cl)cc2)nn1 |  | URM 4263 | 256 µg/mL
N=c1oc2ccccc2c2csc(N)c12 |  | ATCC 6258 | 64 µg/mL
Cc1ccc(N2N=C(c3c[nH]c4ccccc34)CC2c2cccc(Cl)c2Cl)cc1 |  | NRRL Y-7179 | 200 µg/mL
Cc1nc2c(s1)C(=O)C(Nc1ccc(I)cc1)=C(Cl)C2=O |  | KCCM 11655 | 12.5 µg/mL
CC1=C2C3=C4[C@@](C)(C(=O)[C@]2(O)OC1=O)[C@@H]1C[C@@H]1[C@@]4(O)C[C@@H]1[C@]32OC(=O)C3=C2C[C@H]2[C@](O)(COC(=O)/C(C)=C/COC(=O)CCC(=O)OC3)[C@H]3C[C@H]3[C@]12C |  | ATCC 6258 | >256 µg/mL
O=C(CCn1ccnc1)c1ccc(Cl)cc1 |  | RTCC 1090 | >64 µg/mL
COc1ccc(-c2cc(=O)c3c(O)c([C@@H]4O[C@H](CO)[C@@H](O)[C@H](O)[C@H]4O)c(O)cc3o2)cc1O |  | ATCC 6258 | >500 µg/mL
O=C(/C=C/c1cc(Cl)ccc1Cl)c1c[nH]c2ccccc12 |  | NRRL Y-7179 | 200 µg/mL
NC(Cc1ccccc1)C(=O)NC(CC1C=Cc2ccccc21)C(=O)NC(CS)C(=O)O |  | ATCC 6258 | 370 µg/mL
CC1=C2C(=O)c3c(C)coc3C[C@@]2(C)[C@H](O)C[C@H]1O |  | ATCC 6258 | >256 µg/mL
OC(CCn1ccnc1)c1ccc(-c2ccccc2)cc1 |  | RTCC 1001 | >64 µg/mL
Cc1ccc(N2N=C(c3c[nH]c4ccccc34)CC2c2cc(Cl)cc(Cl)c2)cc1 |  | NRRL Y-7179 | 50 µg/mL
OC(CCn1ccnc1)c1cccc(C(O)c2ccc(Cl)cc2)c1 |  | RTCC 1090 | >64 µg/mL
CCCCCCCCCCCCCCCC(=O)NC(CCCCN)C(=O)NC(CCCCN)C(N)=O |  | 4473 | 4 µg/mL
OC(CCn1ccnc1)c1ccc(Br)cc1 |  | RTCC 1090 | >64 µg/mL
COC(=O)c1c(N)oc2c1cc(O)c1sc(C)nc12 |  | KCCM 11655 | 25 µg/mL

The last 3 rows once more:

| smiles | setting | strain or isolate | value |
|---|---|---|---|
| CCCCCCCCCCCCCCCC(=O)NC(CCCCN)C(=O)NC(CCCCN)C(N)=O |  | 4473 | 4 µg/mL |
| OC(CCn1ccnc1)c1ccc(Br)cc1 |  | RTCC 1090 | >64 µg/mL |
| COC(=O)c1c(N)oc2c1cc(O)c1sc(C)nc12 |  | KCCM 11655 | 25 µg/mL |